Experimental data: article PMC12383145 (Antibiotics, 2025)
Positions of bridges follow the written chain, without caps; N, C: chain ends. Non-standard residues stand in square brackets, D forms with d. Residues, ends and D or L forms follow the SMILES beside them. Chains are numbered I, II in the order given. *: point of attachment. RhodamineB = CCN(CC)c1ccc2c(-c3ccccc3C(=O)*)c3ccc(=[N+](CC)CC)cc-3oc2c1; hPhe = N[C@@H](CCc1ccccc1)C(=O)O; Ahx = NCCCCCC(=O)O

Test system: HeLa cells
Test: Fluorescence confocal microscopy, colocalization analysis (ImageJ JaCoP)
Format: cell-based
Settings: 2 h at IC50
Procedure: The possible cellular distribution of the peptides was determined by colocalization analysis of the Rhodamine B fluorescent signal, with fluorophores used to stain the nucleus (Hoechst 33342) and cytoplasm components (SMA antibody). ImageJ 1.54f analysis software and the JaCoP plugin were used to analyze signal colocalization.
HeLa cells (>70% confluence) were seeded on sterile round coverslips in 24-well plates with DMEM + 5% FBS and incubated at 37 °C, 5% CO2 for 24 h. After adhesion, the medium was replaced, and cells were treated with fluorescent peptides at their IC50 for 2 h. Then, cells were washed with PBS under constant stirring (3 × 10 min). Cellular fixation was performed using a solution containing 2% paraformaldehyde and 1% sucrose 100 mM in PBS for 30 min, followed by PBS washes (2 × 10 min). Permeabilization was carried out using a solution of 0.1% Triton X-100 and 20 mM glycine in PBS for 10 min, followed by two additional PBS washes. Blocking was performed with 1% BSA and 20 mM glycine in PBS for 10 min. Subsequently, cells were incubated with an anti-alpha-smooth muscle actin antibody (SMAC) labeled with Alexa Fluor 488 for 90 min in the dark. After incubation, cells were washed with PBS for 10 min. To stain the nuclei, 25 µL of Hoechst 3342 solution (1:50 dilution) was added and incubated for 7 min, followed by two PBS washes (2 × 10 min). The coverslips were dried by capillarity. For the fluorescence lecture, 5 µL of Fluoromount mounting medium was applied to the slide, and the coverslip containing the cells was inverted onto the medium. Slides were allowed to be dry-protected from light, and cells were visualized using a Leica DMi8 fluorescence confocal microscope. LAS X 3.10.0 and Fiji ImageJ 1.54f software were used for image analysis.

[1] = RhB signal vs Alexa Fluor 488 SMA (cytoplasmic actin), HeLa
[2] = RhB signal vs Hoechst 3322 (nucleus), HeLa

| SMILES | Correlation coefficient [1] | Correlation coefficient [2] | Manders Coefficient M1 (Red) (vs Alexa Fluor 488 SMA, HeLa) | Manders Coefficient M2 (Blue/Green) (vs Alexa Fluor 488 SMA, HeLa) | Manders Coefficient M1 (Red) (vs Hoechst 3322, HeLa) | Manders Coefficient M2 (Blue/Green) (vs Hoechst 3322, HeLa) |
| --- | --- | --- | --- | --- | --- | --- |
| CCN(CC)c1ccc2c(-c3ccccc3C(=O)N[C@@H](CCCNC(=N)N)C(=O)N[C@@H](Cc3c[nH]c4ccccc34)C(=O)N[C@@H](CCC(N)=O)C(=O)N[C@@H](Cc3c[nH]c4ccccc34)C(=O)N[C@@H](CCCNC(=N)N)C(=O)N[C@@H](Cc3c[nH]c4ccccc34)C(=O)N[C@@H](CCC(N)=O)C(=O)N[C@@H](Cc3c[nH]c4ccccc34)C(=O)N[C@@H](CCCNC(=N)N)C(N)=O)c3ccc(=[N+](CC)CC)cc-3oc2c1 [RhB-1, RhB-RWQWRWQWR] (RhodamineB-RWQWRWQWR-NH2) | 0.444 | 0.697 | 0.488 | 0.749 | 0.962 | 0.746 |
| CCN(CC)c1ccc2c(-c3ccccc3C(=O)N[C@@H](CCCNC(=N)N)C(=O)N[C@@H](CCCNC(=N)N)C(=O)N[C@@H](Cc3c[nH]c4ccccc34)C(=O)N[C@@H](CCC(N)=O)C(=O)N[C@@H](Cc3c[nH]c4ccccc34)C(=O)N[C@@H](CCCNC(=N)N)C(=O)N[C@@H](CCc3ccccc3)C(=O)N[C@@H](CCCCN)C(=O)N[C@@H](CCCCN)C(=O)N[C@@H](CC(C)C)C(=O)NCC(=O)NCCCC[C@H](NC(=O)CNC(=O)[C@H](CC(C)C)NC(=O)[C@H](CCCCN)NC(=O)[C@H](CCCCN)NC(=O)[C@H](CCc3ccccc3)NC(=O)[C@H](CCCNC(=N)N)NC(=O)[C@H](Cc3c[nH]c4ccccc34)NC(=O)[C@H](CCC(N)=O)NC(=O)[C@H](Cc3c[nH]c4ccccc34)NC(=O)[C@H](CCCNC(=N)N)NC(=O)[C@H](CCCNC(=N)N)NC(=O)c3ccccc3-c3c4ccc(=[N+](CC)CC)cc-4oc4cc(N(CC)CC)ccc34)C(=O)NCCCCCC(N)=O)c3ccc(=[N+](CC)CC)cc-3oc2c1 [RhB-2, (RhB-RRWQWR-hF-KKLG)2K-Ahx] (I: RhodamineB-RRWQWR[hPhe]KKLGK[Ahx]-NH2 / II: RhodamineB-RRWQWR[hPhe]KKLG; amide I:12-II:C) | 0.664 | 0.488 | 0.947 | 0.77 | 0.345 | 0.435 |
